Reference: patent US20230381142A1, “ANTILEISHMANIAL COMPOUNDS, COMPOSITIONS AND USE THEREOF” (TRUSTEES OF BOSTON UNIVERSITY, priority 2022, published 2023)

Each molecule was assayed on L. donovani intracellular amastigotes infecting THP-1 macrophages (assay: GSK intramacrophage L. donovani assay (LD AMMAC, inMac; Assay Conditions C)). Conditions: (LD MAC EC50)/(LD AMMAC EC50).
Format: cell-based, Leishmania donovani
Experimental: Assay Conditions C: The intramacrophage Leishmania donovani activity assay was performed as described in Antimicrob Agents Chemother (2013) 57(7):2913-22.
The intramacrophage Leishmania donovani activity assay (LD AMMAC) at GlaxoSmithKline was performed as described.
Given the literature precedents described above and the apparent narrow tolerance for R^3 substitutions observed in the primary screen compounds, a thorough and methodical assessment was undertaken of tolerated groups at the three points of diversity (R^1/R^2/R^3) for the core. At this stage of the project, all analogues were assessed using a battery of assays performed in-house at GlaxoSmithKline. For antileishmanial activity, GSK's inMac assay was utilized. This assay provides two readouts of compound potency: average number of intracellular amastigotes per infected cell (AMMAC) EC50, percentage of infected cells per well (INFCELL) EC50, as well as a toxicity output derived from the number of host cells (MAC EC50). In addition, compounds were assessed for toxicity against HepG2 cells (HEPG2 EC50). Here, AMMAC EC50 values were focused on for relative potency assessments. […] It should be noted that for all compounds assessed in this project, the measured toxicity against THP-1 macrophages either equaled or exceeded that of HepG2 hepatocytes, therefore the MAC SI is used here as the more conservative estimate of therapeutic index.

Compound	SI MAC
COc1ccc(N2C(=O)c3[nH]nc(CC(C)C)c3C2c2c(Cl)cccc2Cl)cc1 (centres unmarked) [Compound 66]	2.5
COc1ccc(N2C(=O)c3[nH]nc(CC(C)C)c3C2C2CCCCC2)cc1 (centres unmarked) [Compound 52]	3.2
COc1ccc(N2C(=O)c3[nH]nc(CC(C)C)c3C2c2ccsc2)cc1 (centres unmarked) [Compound S3]	>7.9
COC(=O)c1ccc(N2C(=O)c3[nH]nc(CC(C)C)c3C2c2ccc(F)cc2)cc1 (centres unmarked) [Compound 26]	20.0
COc1ccc(N2C(=O)c3[nH]nc(CC(C)C)c3C2c2ccc(F)c(F)c2)cc1 (centres unmarked) [Compound 65, 4-(3,4-difluorophenyl)-3-isobutyl-5-(4-methoxyphenyl)-4,5-dihydropyrrolo[3,4-c]pyrazol-6(1H)-one]	5.0
COC(=O)c1ccc(C2c3c(CC(C)C)n[nH]c3C(=O)N2c2ccc(OC)cc2)cc1 (centres unmarked) [Compound 51]	1.6
COc1ccc(N2C(=O)c3[nH]nc(CC(C)C)c3C2c2ccccc2)cc1 (centres unmarked) [Compound 2]	9.9
CC(C)Cc1n[nH]c2c1C(c1ccc(F)cc1)N(CCN1CCCC1)C2=O (centres unmarked) [Compound 39]	>3.2
CC(C)Cc1n[nH]c2c1C(c1ccc(F)cc1)N(c1ccc3c(c1)OCO3)C2=O (centres unmarked) [Compound 44, 5-(benzo[d][1,3]dioxol-5-yl)-4-(4-fluorophenyl)-3-isobutyl-4,5-dihydropyrrolo[3,4-c]pyrazol-6(1H)-one]	41.8
CCc1ccc(N2C(=O)c3[nH]nc(CC(C)C)c3C2c2ccc(F)cc2)cc1 (centres unmarked) [Compound 22]	5.0
CC(C)Cc1n[nH]c2c1C(c1ccc(F)cc1)N(C1CCOCC1)C2=O (centres unmarked) [Compound 38]	>1.6
COc1ccc(N2C(=O)c3[nH]nc(CC(C)C)c3C2c2cncc(OC)c2)cc1 (centres unmarked) [Compound S11]	2.0

Same assay, conditions: THP-1 CC50 / L. donovani EC50 (THP-1)

Compound	SI Host cell potency/L. donovani potency
COc1ccc(N2C(=O)c3nn(C)c(CC(C)C)c3C2c2ccc(F)cc2)cc1 (centres unmarked) [CMLD010988]	3.2
CC(C)Cc1n[nH]c2c1C(c1ccsc1)N(c1ccc3c(c1)OCO3)C2=O (centres unmarked) [CMLD011136]	10.0
COc1cc(N2C(=O)c3[nH]nc(CC(C)C)c3C2c2ccccc2Br)cc(OC)c1OC (centres unmarked) [CMLD011077]	1.0
CC(=O)OCC(CO)N1C(=O)c2[nH]nc(CC(C)C)c2C1c1ccc(F)cc1 (centres unmarked) [CMLD011037]	1.0
CC(C)Cc1n[nH]c2c1C(c1ccccc1Br)N(c1ccc3c(c1)OCC(=O)N3)C2=O (centres unmarked) [CMLD011497]	10.0
C#CCn1nc2c(c1CC(C)C)C(c1ccc(F)cc1)N(c1ccc(OC)cc1)C2=O (centres unmarked) [CMLD010986]	7.9
C=CCn1nc2c(c1CC(C)C)C(c1ccc(F)cc1)N(c1ccc(OC)cc1)C2=O (centres unmarked) [CMLD010984]	5.0
CC(C)Cc1n[nH]c2c1C(c1ccccc1Cl)N(c1ccc(C(C)(C)C)cc1)C2=O (centres unmarked) [CMLD011047]	2.5
COc1ccc(N2C(=O)c3[nH]nc(CC(C)C)c3C2c2ccc(C)s2)cc1 (centres unmarked) [CMLD011123]	4.0
COc1ccc(N2C(=O)c3[nH]nc(CC(C)C)c3[C@H]2c2ccc(F)cc2)cc1 [CMLD013629]	2.5

Same assay, conditions: rows whose L. donovani EC50 is in THP-1 cells (c)

Compound	SI Host cell potency/L. donovani potency
COc1ccc(N2C(=O)c3[nH]nc(CCc4ccccc4)c3C2c2ccc(F)cc2)cc1 (centres unmarked) [CMLD010849]	4.0
CC(C)Cc1n[nH]c2c1C(c1c(Cl)cccc1Cl)N(c1ccc(Br)cc1)C2=O (centres unmarked) [CMLD011550]	2.5
CCn1nc(CC(C)C)c2c1C(=O)N(c1ccc(OC)cc1)C2c1ccc(F)cc1 (centres unmarked) [BUCMD00809]	10.0
CC(C)Cc1n[nH]c2c1C(c1ccc(F)cc1)N(c1ccc(Br)cc1)C2=O (centres unmarked) [CMLD010897]	12.2
COc1ccc(N2C(=O)c3[nH]nc(CC(C)C)c3C2c2ccc(F)cc2)cc1 (centres unmarked) [CMLD007431]	>8
COc1ccc(N2C(=O)c3[nH]nc(CC(C)C)c3C2c2ccc(Cl)cc2)cc1 (centres unmarked) [CMLD011096]	4.0
COc1cccc(N2C(=O)c3[nH]nc(CC(C)C)c3C2c2ccsc2)c1 (centres unmarked) [CMLD010880]	2.0
CO[C@H]1CC[C@H](N2C(=O)c3[nH]nc(CC(C)C)c3C2c2ccc(F)cc2)CC1 (some centres unmarked) [CMLD011036]	>2.0
COc1ccc(N2C(=O)c3[nH]nc(CC(C)C)c3C2c2ccsc2)cn1 (centres unmarked) [CMLD011137]	2.5
COc1ccc(N2C(=O)c3[nH]nc(-c4ccc(OCc5ccccc5)cc4)c3C2c2ccc(F)cc2)cc1 (centres unmarked) [BUCMD00811]	1.6
COc1ccc(N2C(=O)c3[nH]nc(CC(C)C)c3C2c2ccc(F)cc2)c(OC)c1 (centres unmarked) [CMLD010992]	1.6
COc1ccc(N2C(=O)c3[nH]nc(CC(C)C)c3C2c2cccnc2OC)cc1 (centres unmarked) [CMLD0011576]	0.4
COCn1nc2c(c1CC(C)C)C(c1ccc(F)cc1)N(c1ccc(OC)cc1)C2=O (centres unmarked) [BUCMD00814]	>4
COC(=O)c1ccc(C2c3c(CC(C)C)n[nH]c3C(=O)N2c2ccc(OC)cc2)cc1 (centres unmarked) [CMLD011034]	1.6
CC(C)Cc1n[nH]c2c1C(c1ccc(F)cc1)N(c1cccc(C#N)c1)C2=O (centres unmarked) [BUCMD00806]	>2.0
CC(C)Cc1n[nH]c2c1C(c1ccc(F)cc1)N(c1ccc(F)cc1)C2=O (centres unmarked) [CMLD011113]	4.0
COc1cccc(N2C(=O)c3[nH]nc(CC(C)C)c3C2c2cccc(C(F)(F)F)c2)c1 (centres unmarked) [CMLD011140]	4.0
CCn1nc2c(c1CC(C)C)C(c1ccc(F)cc1)N(c1ccc(OC)cc1)C2=O (centres unmarked) [BUCMD00810]	>2.5
COc1ccc(N2C(=O)c3[nH]nc(CC(C)C)c3C2c2cccc(Cl)c2)cc1 (centres unmarked) [CMLD011099]	5.0

Compound	SI Host cell potency/L. donovani potency
CC(C)Cc1n[nH]c2c1C(c1cccc(Cl)c1)N(c1ccc(C(C)(C)C)cc1)C2=O (centres unmarked) [CMLD011131]	6.3
COc1ccc(N2C(=O)c3[nH]nc(-c4ccc5c(c4)CCC5)c3C2c2ccc(F)cc2)cc1 (centres unmarked) [CMLD010980]	1.6
COc1ccc(N2C(=O)c3[nH]nc(CC(C)C)c3C2c2cncc(OC)c2)cc1 (centres unmarked) [CMLD010886]	2.0
COc1ccc(N2C(=O)c3[nH]nc(CC(C)C)c3C2c2cnccc2OC)cc1 (centres unmarked) [CMLD011577]	2.0
COc1ccc(N2C(=O)c3[nH]nc(CC(C)C)c3C2c2ccccn2)cc1 (centres unmarked) [CMLD011125]	>1.6
CC(C)Cc1n[nH]c2c1C(c1ccc(F)cc1)N(c1ccccc1N(C)C)C2=O (centres unmarked) [CMLD011499]	3.2
COc1cncc(N2C(=O)c3[nH]nc(CC(C)C)c3C2c2ccc(F)cc2)c1 (centres unmarked) [CMLD010883]	>1.5
COc1cccc(N2C(=O)c3[nH]nc(CC(C)C)c3C2c2ccccc2Cl)c1 (centres unmarked) [CMLD010881]	2.0
COCn1nc(CC(C)C)c2c1C(=O)N(c1ccc(OC)cc1)C2c1ccc(F)cc1 (centres unmarked) [BUCMD00813]	2.5
COc1ccc(N2C(=O)c3[nH]nc(CC(C)C)c3C2C2CCCCC2)cc1 (centres unmarked) [CMLD010892]	3.2
COc1ccc(N2C(=O)c3[nH]nc(CC(C)C)c3C2c2c(Cl)cccc2Cl)cn1 (centres unmarked) [CMLD011569]	4.0
CC(C)Cc1n[nH]c2c1C(c1ccc(F)cc1)N(c1ccc3c(c1)OC(F)(F)O3)C2=O (centres unmarked) [CMLD011105]	5.0
COc1ccc(N2C(=O)c3[nH]nc(CC(C)C)c3C2c2ccncc2)cc1 (centres unmarked) [CMLD011142]	1.0
CC(C)Cc1n[nH]c2c1C(C1CCCCC1)N(c1ccc(C(C)(C)C)cc1)C2=O (centres unmarked) [CMLD011042]	20.0
COc1ccc(N2C(=O)c3[nH]nc(CC(C)C)c3[C@H]2c2ccc(F)cc2C)cc1 [CMLD010950]	5.0
COc1ccc(N2C(=O)c3[nH]nc(CC(C)C)c3[C@@H]2c2ccccc2Br)cn1 [CMLD010976]	20.0
COc1ccc(N2C(=O)c3[nH]nc(CC(C)C)c3C2c2cnccc2Cl)cc1 (centres unmarked) [CMLD011579]	<0.2
CC(C)Cc1n[nH]c2c1C(c1ccccc1Cl)N(CCN1CCCC1)C2=O (centres unmarked) [BUCMD00799]	>2.5
